A mixed list of measured activities; the numbers were collected in NIAID ChemDB.

Shared fields: whole-cell or culture tests

Inhibition is in % at the dose shown (toxicity tests: loss of growth or viability). An empty or dashed field is not shown. Neighbouring rows are from separate reports. MIC50, MIC90 and the like: level of inhibition, or share of isolates inhibited.

| SMILES | measure | strain | cell line | method | tested at | agent | result |
|---|---|---|---|---|---|---|---|
| NC[C@@H]1O[C@H](O[C@H]2[C@@H](O)[C@H](O[C@@H]3[C@@H](O)[C@H](N)C[C@H](N)[C@H]3O[C@H]3O[C@H](CO)[C@@H](O)[C@H](O)[C@H]3N)O[C@@H]2CO)[C@H](N)[C@@H](O)[C@@H]1O | inhibition | IOWA | MDCK | luminescence | 10 µg/mL | Cryptosporidium parvum | 2.8% |
| NCCCC[C@H](NC(=O)[C@H](Cc1c[nH]c2ccccc12)NC(=O)[C@H](CCCCN)NC(=O)[C@@H](N)CCCCN)C(=O)O | inhibition | ATCC 32264 | - | - | 25 µM | Cryptococcus neoformans | 0% |
| CN[C@H]1CC[C@@H](c2ccc(Cl)c(Cl)c2)c2ccccc21 | MIC90 | JEC21 | - | broth dilution | - | Cryptococcus neoformans | 2 µg/mL |
| Cn1nc(Cc2ccc(Cl)cc2)c2ccccc2c1=O | MIC50 | Clinical isolate (IM 983036) | - | broth dilution | - | Cryptococcus neoformans | ≥250 µg/mL |
| O=C1c2ccccc2C(=O)c2[nH]ncc21 | inhibition | - | - | - | 50 µM | Cryptosporidium parvum | <10% |
| Oc1ccccc1N=Cc1ccc2c(c1)OCO2 | MIC99 | L24/01 | - | - | - | Cryptococcus gattii | 8 µg/mL |
| Cc1cccc2c1C(=O)c1cnn(C)c1C2=O | inhibition | - | - | - | 50 µM | Cryptosporidium parvum | <10% |
| CCC(C)n1ncn(-c2ccc(N3CCN(c4ccc(OC[C@H]5CO[C@](Cn6cncn6)(c6ccc(Cl)cc6Cl)O5)cc4)CC3)cc2)c1=O | MIC | ATCC 32264 | - | broth dilution | - | Cryptococcus neoformans | 0.15 µg/mL |
| CC1(C)O[C@H]2[C@H](O)[C@@H](N=[N+]=[N-])C=C(c3ccc(C=O)cc3)[C@H]2O1 | inhibition | ATCC 32264 | - | broth dilution / turbidity | 7.8 µg/mL | Cryptococcus neoformans | 0% |
| CCn1nc(C)c2c1C(=O)c1ccccc1C2=O | inhibition | - | - | - | 50 µM | Cryptosporidium parvum | <10% |
| Oc1ccccc1N=Cc1ccc(F)cc1 | MIC99 | 28JF | - | - | - | Cryptococcus neoformans | 11.3 µg/mL |
| CCn1nc(Cc2ccccc2)c2c1C(=O)c1c(OC(C)=O)c(C)c(C)c(OC(C)=O)c1C2=O | inhibition | - | - | - | 10 µM | Cryptosporidium parvum | <10% |
| Oc1ccccc1N=Cc1ccccc1 | MIC99 | LMM 818 | - | - | - | Cryptococcus gattii | 5.7 µg/mL |
| C[C@@H](c1nc(-c2ccc(C#N)cc2)cs1)[C@](O)(Cn1cncn1)c1cc(F)ccc1F | MIC50 | VG IIb | - | broth dilution | - | Cryptococcus gattii | 0.125 µg/mL |
| C[C@@H](c1ncncc1F)[C@](O)(Cn1cncn1)c1ccc(F)cc1F | MIC | CBS 11545 | - | broth dilution | - | Cryptococcus gattii | 0.25 µg/mL |
| Cc1nc(NCCCCNc2ccnc3cc(Cl)ccc23)nc(-c2ccccc2[N+](=O)[O-])c1C(=O)OC(C)C | MIC99 | 135L/03 | - | - | - | Cryptococcus gattii | 8 µg/mL |
| NC[C@@H]1O[C@H](O[C@H]2[C@@H](O)[C@H](O[C@@H]3[C@@H](O)[C@H](N)C[C@H](N)[C@H]3O[C@H]3O[C@H](CO)[C@@H](O)[C@H](O)[C@H]3N)O[C@@H]2CO)[C@H](N)[C@@H](O)[C@@H]1O | inhibition | - | MDBK | cell count | 2000 µg/mL | Cryptosporidium parvum | 81.9% |

Repeating the first 2 entries:

NC[C@@H]1O[C@H](O[C@H]2[C@@H](O)[C@H](O[C@@H]3[C@@H](O)[C@H](N)C[C@H](N)[C@H]3O[C@H]3O[C@H](CO)[C@@H](O)[C@H](O)[C@H]3N)O[C@@H]2CO)[C@H](N)[C@@H](O)[C@@H]1O ; measure: inhibition ; strain: IOWA ; cell line: MDCK ; method: luminescence ; tested at: 10 µg/mL ; agent: Cryptosporidium parvum ; result: 2.8%
NCCCC[C@H](NC(=O)[C@H](Cc1c[nH]c2ccccc12)NC(=O)[C@H](CCCCN)NC(=O)[C@@H](N)CCCCN)C(=O)O ; measure: inhibition ; strain: ATCC 32264 ; tested at: 25 µM ; agent: Cryptococcus neoformans ; result: 0%